In PubChem BioAssay AID651607 (The Scripps Research Institute Molecular Screening Center, 2012):
The entries are a selection whose mix differs from that of the whole data set. The source made the active and inactive calls. No stated cut-off is given here; in the data, active means inhibition above about 17%; inactive means the rest.

Each compound was assayed on methionyl-tRNA synthetase (Trypanosoma brucei brucei) (assay: T. brucei MetRS inhibitors, orthogonal assay for T. brucei MetRS inhibitor project, biochemical, fluorescence polarization (AID 651607;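 further: 0% = vehicle wells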)). Settings: purified T. brucei MetRS, at 11.9 µM, stronger effect = higher value.

| SMILES | inhibition |
| --- | --- |
| CCC1=CC2Cc3nc4ccc(Cl)cc4c(N)c3C(C1)C2 (configuration not stated) | active: 90.5% |
| O=P(Nc1nc2ccc(Cl)cc2s1)(c1ccccc1)c1ccccc1 | active: 19.2% |
